Legend:
[1] = molecular target: HIV-1 YU2 gp120 (full-length, clade B) (Human immunodeficiency virus type 1 group M subtype B, UniProt P35961); test: SPR binding to immobilized YU2 gp120
[2] = tested on: HIV-1 Clade A/E viruses; test: Neutralization of Clade A/E HIV-1 isolates; assay type: cell-based; details: Clade A/E viruses with His375
[3] = tested on: HIV-1 (24-isolate pseudovirus panel); test: HIV-1 Env-pseudovirus neutralization, 24-isolate panel; assay type: cell-based; details: Env-pseudoviruses, TZM-bl target cells

CC(C)C[C@@H]1NC(=O)CNC(=O)[C@H](CC(C)C)NC(=O)[C@H](CO)NC(=O)[C@H](CCCCN)NC(=O)[C@@H]2CSSC[C@@H](C(=O)N[C@H](C(N)=O)C(C)C)NC(=O)[C@H](C)NC(=O)[C@@H]3CSSC[C@H](NC(=O)[C@H](Cc4ccccc4)NC(=O)[C@H](Cc4c[nH]cn4)NC(=O)[C@H](CC(C)C)NC(=O)[C@H](CC(N)=O)NC(=O)CCSSC[C@H](NC(=O)[C@H](CCCNC(=N)N)NC(=O)CNC(=O)[C@H](CC(C)C)NC1=O)C(=O)N[C@@H](C)C(=O)N1CCC[C@@H]1C(=O)N[C@@H]([C@@H](C)O)C(=O)N[C@@H](Cc1ccc(OCCCCCO)cc1)C(=O)N3)C(=O)N[C@@H](CCC(N)=O)C(=O)N[C@@H](CC(C)C)C(=O)N[C@@H](CCCNC(=N)N)C(=O)N2 [M48U7]
fold faster dissociation from gp120 ([1]; M48U7 versus M48U1): about 10 times
kon ([1]; read-out: association rate): 2.42e+06 M⁻¹ s⁻¹
koff ([1]; read-out: dissociation rate (off-rate)): 0.000446 s⁻¹
neutralization of Clade A/E viruses (in words) [2]: none of the clade A/E viruses tested in this study were neutralized
Neutralization Breadth [3]: 67%
Neutralization Potency (geometric mean IC50) ([3]; single round of infection): 5.18 µg/mL

Source: article PMC4140785 (Structure (London, England : 1993), 2013)
